Experimental data from paper PMC8646600 (Advanced Science, 2021).

Molecular target: T1, full-length SARS-CoV spike expressed on cells (SARS-CoV, strain , UniProt P59594)
T1 construct: source: HEK293T, transiently transfected, on cells
Assay: flow cytometry on cells; […] MFI in EGFP-positive cells
Conditions: one partner purified

B1: S-B8 full-length human IgG4e1(S228P) antibody (antibody, V domains shown)
VH: QVQLVQSGGGLIQPGGSLRLSCAASGFTVSLSHMNWVRQAPGKGLEWVSITYGDGNSDYADSVKGRFTISRDNSKNTLYLQMNSLRAEDTAVYYCAREYYYGMDVWGQGTTVTVSS
VL: DIVMTQSPDSLAVSLGERATINCKSSQSVLYSSNNKNYLAWYQQKPGQPPKLLIYWASTRESGVPDRFSGSGSGTDFTLTISSLQAEDVAVYYCQQYYSLPLTFGGGTKLEIK
notes: also called S-B8 IgG; source: HEK293F, secreted; clarified culture supernatant, and purified (Mabselect)
Q: Does B1 bind?
A: no binding
